Compound potency records, mixed from different reports. Data source: NIAID ChemDB in PubChem.

All rows: toxicity to cultured cells; cells: Huh7; read-out: CC50

Rows are shuffled and stem from different studies. CCn is the concentration with n% toxicity to the cells. a–b is a range or a potency band. An empty or dashed field is not shown.

COc1ccc(/C(N)=N/OC(=O)N2CCOCC2)cc1OC ; method: MTS ; result: 100 µM
COC(=O)Nc1ccc(-c2cnc3nc(N)nc(N4CCOCC4)c3n2)cc1 ; result: <10 µM
CC(C)(C)OC(=O)CCNC(=O)Nc1nc2c(s1)-c1nc(-c3ccccc3Cl)ncc1CC2 ; result: 10 µM
O=C(O)C(=O)CC(=O)c1ccccc1 ; method: MTT ; result: 186.8 µM
Nc1ncnc2c1ncn2[C@H]1O[C@H](CO)[C@@H](F)[C@@H]1F ; result: >10 µM
CCCC1CCC(c2ccc(Nc3s[nH]c(=O)c3C#N)cc2)CC1 ; result: >50 µM
CCOc1nc(N)nc2ncc(-c3ccc(OC)c(F)c3)nc12 ; result: >20 µM
CCC[C@H](NC(=O)[C@@H]1[C@H]2CCC[C@H]2CN1C(=O)[C@@H](NC(=O)[C@@H](NC(=O)c1cnccn1)C1CCCCC1)C(C)(C)C)C(=O)C(=O)NC1CC1 ; result: 86.5 µM
CC(=O)c1cccc(Nc2s[nH]c(=O)c2C#N)c1 ; result: >50 µM
Cc1cc(F)ccc1-c1cnc2nc(N)nc(N3CCOCC3)c2n1 ; result: >20 µM
O=c1ccn([C@@H]2O[C@H](CO)[C@@H](O)[C@H]2O)c(=S)[nH]1 ; method: MTS ; result: >100 µM
COC(=O)N[C@H](C(=O)N1CCCC1c1ncc(-c2ccc(-c3ccc(-c4cnc([C@@H]5CC(C)CN5C(=O)[C@@H](NC(=O)CO)C(C)C)[nH]4)cc3)cc2)[nH]1)C(C)C ; method: ATP ; result: 38 µM
N/C(=N\OC(=O)N1CCOCC1)c1ccc(O)cc1 ; method: MTS ; result: 87.8 µM
CC(C)c1cccc(C(C)C)c1Nc1s[nH]c(=O)c1C#N ; result: >50 µM
CCC[C@H](NC(=O)[C@@H]1[C@H]2CCC[C@H]2CN1C(=O)[C@@H](NC(=O)[C@@H](NC(=O)c1cnccn1)C1CCCCC1)C(C)(C)C)C(=O)C(=O)N[C@@H](C)Cc1ccc(C)cc1 ; result: 63 µM
CCN(CC)C(=O)N1CCN(c2nc(N)nc3ncc(-c4ccc(OC)c(OC)c4)nc23)CC1 ; method: ATP ; result: >20 µM
CS(=O)(=O)Nc1ccc2c(c1)S(=O)(=O)N=C(c1c(O)c3ccccc3n(NC3CCC3)c1=O)N2 ; method: MTT ; result: >10 µM
COc1cc(Cc2cnc(/N=C3\C(=O)N(CN4CCN(c5ccccc5)CC4)c4ccc(F)cc43)nc2N)cc(OC)c1OC ; result: <50 µg/mL
CCOC(=O)c1c(CSc2ccccn2)n(C)c2cc(Br)c3c(c12)CN(C)CO3 ; method: ATP ; result: 15.2 µM
CCn1cc(C(=O)O)c(=O)c2cc(F)c(N3CCN(CN4C(=O)/C(=N\c5ncc(Cc6cc(OC)c(OC)c(OC)c6)c(N)n5)c5cc(F)ccc54)C(C)C3)c(F)c21 ; result: <50 µg/mL
C=C1C(=O)O[C@@H]2[C@H]1CC[C@H](COC(=O)/C(C)=C/C)[C@]1(O)CCC(=O)[C@@]21C ; result: >2 µM
Nc1nc(N2CCOCC2)c2nc(-c3ccc(CN4CCOCC4)cc3)cnc2n1 ; result: >20 µM
NC(=O)[C@@H]1O[C@@H]1C(=O)Nc1ccc(Oc2ccc([N+](=O)[O-])cc2)cc1 ; method: MTT ; result: 62 µM
O=C(NCc1ccccc1)c1nc2ccccc2c(=O)n1O ; method: MTT ; result: >250 µM
CCCC(NC(=O)[C@@H]1C2CCCC2CN1C(=O)[C@@H](NC(=O)[C@@H](NC(=O)c1cnccn1)C1CCCCC1)C(C)(C)C)C(=O)C(=O)N[C@@H](C)CC ; result: 53.7 µM
N#Cc1c(NCCc2cccs2)s[nH]c1=O ; result: >50 µM
NC(=O)[C@@H]1O[C@@H]1C(=O)Nc1cccc(Cl)c1 ; method: MTT ; result: >100 µM
CCN(CC)CN1C(=O)/C(=N\c2ncc(Cc3cc(OC)c(OC)c(OC)c3)c(N)n2)c2cc(F)ccc21 ; result: <50 µg/mL
N/C(=N\OC(=O)N1CCOCC1)c1ccc([N+](=O)[O-])cc1 ; method: MTS ; result: >100 µM
C[C@@]1(O)[C@H](O)[C@@H](CO)O[C@H]1c1cnc2c(=O)[nH]c(N)nn12 ; method: MTT ; result: >100 µM
C=C1C(=O)O[C@@H]2[C@H]1CC[C@H](COC(=O)C(C)CC)[C@]1(O)CCC(=O)[C@@]21C ; result: >2 µM
CCOC(=O)c1c(CSc2ccccc2)n(C)c2cc(N=[N-])c3c(c12)CN(C)CO3 ; method: ATP ; result: 12 µM
Nc1nc(Cl)nc2c1ncn2[C@H]1O[C@H](CO)[C@@H](F)[C@@H]1F ; result: >10 µM
CCCCN1N=C(N)c2cn(C3(C)O[C@H](CO)[C@@H](O)[C@H]3O)c3ncnc1c23 ; result: >300 µM
CCOC(=O)c1c(CSc2ccccc2)n(C)c2cc(Br)c(O)c(CN(C)C)c12.Cl ; method: ATP ; result: 13.6 µM
CCN(C(=O)c1ccc(C)cc1)c1cc(-c2ccccc2)sc1C(=O)O ; result: 200 µM
CCCCCCCC(=O)CCCCCC/C=C/[C@H](C(=O)N[C@@H](Cc1ccc(CNC(=O)OC2c3ccccc3-c3ccccc32)cc1)C(=O)O)[C@@](O)(CC(=O)O)C(=O)O ; result: >1 µM
COc1ccc(-c2cnc3nc(N)nc(N4CCN(C(=O)Oc5ccc(Cl)cc5)CC4)c3n2)cc1OC ; method: ATP ; result: <10 µM
N/C(=N\OC(=O)N1CCOCC1)c1ccccc1 ; method: MTS ; result: >100 µM
CCOC(=O)c1c(CSc2ccccc2)n(C)c2cc(Br)c(O)c(CN(N3CCN(CCO)CC3)N3CCN(CCO)CC3)c12 ; method: ATP ; result: 26.7 µM
COc1ccc([C@@H]2Oc3ccc([C@H]4Oc5cc(O)cc(O)c5C(=O)[C@@H]4O)cc3O[C@H]2CO)cc1O ; method: absorbance ; result: 168 µM
CCOC(=O)[C@H](C)NP(=O)(OC[C@H]1O[C@@H](c2cnc3c(=O)[nH]c(N)nn23)[C@](C)(O)[C@@H]1O)Oc1cccc2ccccc12 ; method: MTT ; result: >100 µM
C=CC1C[C@]1(NC(=O)C1C[C@@H](Oc2cc(-c3ccccc3)nc3ccccc23)CN1C(=O)[C@@H](NC(=O)[C@@H](NC(=O)[C@@H](CCC(=O)O)NC(=O)[C@H](CC(=O)O)NC(C)=O)C1CCCCC1)C(C)(C)C)C(=O)O ; result: >400 µM
CCC[C@H](NC(=O)[C@@H]1C2CCCC2CN1C(=O)[C@@H](NC(=O)[C@@H](NC(=O)c1cnccn1)C1CCCCC1)C(C)(C)C)C(=O)C(=O)N[C@@H](C)C(C)C ; result: 44.3 µM
O=C(NCc1cccc(Cl)c1)c1nc2ccccc2c(=O)n1O ; method: MTT ; result: >250 µM
Nc1ccn([C@@H]2CS[C@H](CO)O2)c(=O)n1 ; method: MTT ; result: >300 µM
COc1cc(Cc2cnc(/N=C3\C(=O)N(CN4CCC(C)CC4)c4ccc(F)cc43)nc2N)cc(OC)c1OC ; result: <50 µg/mL
CCCCCCCC(=O)CCCCCC/C=C/[C@H](C(=O)N[C@@H](Cc1ccc(-c2cccc(Cl)c2)cc1)C(=O)O)[C@@](O)(CC(=O)O)C(=O)O ; result: >1 µM
C[C@@]1(O)[C@H](O)[C@@H](CO)O[C@H]1n1cnc2c(N)ncnc21 ; result: 82 µM
COc1ccc(-c2cnc3nc(N)nc(N4CCN(C(=O)c5ccncc5)CC4)c3n2)cc1OC ; method: ATP ; result: 10–20 µM
CCCCCCCC(=O)CCCCCC/C=C/[C@H](C(=O)N[C@@H](Cc1ccc(OCCC(C)C)cc1)C(=O)O)[C@@](O)(CC(=O)O)C(=O)O ; result: >1 µM
N#Cc1c(Nc2ccc(Br)cc2)s[nH]c1=O ; result: >50 µM
CC(=O)NC1=NN(CCO)c2ncnc3c2c1cn3C1(C)O[C@H](CO)[C@@H](O)[C@H]1O ; result: 200 µM
COc1ccc(-c2cnc3nc(N)nc(N4CCN(CCOc5ccccc5)CC4)c3n2)cc1OC ; method: ATP ; result: >20 µM
CCOc1nc(N)nc2ncc(-c3ccncc3)nc12 ; result: <10 µM
CC(C)C(=O)O[C@@H]1[C@@H](CO)O[C@@H](c2ccc3c(N)ncnn23)[C@]1(C)O ; method: MTT ; result: >100 µM
COc1ccc(-c2cnc3nc(N)nc(N4CCN(C(=O)N5CCCC5)CC4)c3n2)cc1OC ; method: ATP ; result: 10–20 µM
COCCCOc1nc(N)nc2c1ncn2[C@@H]1O[C@H](COP(=O)(N[C@@H](C)C(=O)OCC(C)(C)C)Oc2cccc3ccccc23)[C@@H](O)[C@@]1(C)O ; result: 0.12 µM
N/C(=N\OC(=O)N1CCOCC1)c1ccc(Cl)cc1 ; method: MTS ; result: 51 µM
CC(C)(C)C(=O)OCOP(=O)(CC[C@H]1O[C@@H](n2ccc(N)nc2=O)[C@](C)(F)[C@@H]1O)OCOC(=O)C(C)(C)C ; method: absorbance ; result: >10 µM
CCC[C@H](NC(=O)[C@@H]1C2CCCC2CN1C(=O)[C@@H](NC(=O)[C@@H](NC(=O)c1cnccn1)C(C)CC)C(C)(C)C)C(=O)C(=O)NC1CC1 ; result: >100 µM
COc1ccc(/C(N)=N/OC(=O)N2CCOCC2)cc1 ; method: MTS ; result: 63.3 µM
NC(=O)[C@@H]1O[C@@H]1C(=O)Nc1cccc(Oc2ccccc2)c1 ; method: MTT ; result: 42 µM
Nc1ccn([C@@H]2C[C@H](CO)[C@@H](O)[C@]2(O)CO)c(=O)n1 ; result: 20 µg/mL
Cc1ccc(Oc2ccc(C[C@H](NC(=O)[C@@H](/C=C/CCCCCCC(=O)CCC3CCCCC3)[C@@](O)(CC(=O)O)C(=O)O)C(=O)O)cc2)cc1 ; result: >1 µM
CCC[C@H](NC(=O)[C@@H]1[C@H]2CCC[C@H]2CN1C(=O)[C@@H](NC(=O)[C@@H](NC(=O)c1cnccn1)C1CCCCC1)C(C)(C)C)C(=O)C(=O)NC1CC1 ; result: >30 µM
CCC[C@H](NC(=O)[C@@H]1C2CCCC2CN1C(=O)[C@@H](NC(=O)[C@@H](NC(=O)c1cnccn1)C(C)(C)C)C(C)(C)C)C(=O)C(=O)NC1CC1 ; result: >100 µM
COc1ccc(-c2cnc3nc(N)nc(N4CCN(C(=O)NCCc5cccs5)CC4)c3n2)cc1OC ; method: ATP ; result: <10 µM
N#Cc1c(Nc2ccc(C(F)(F)F)cn2)s[nH]c1=O ; result: >50 µM
NC(=O)[C@@H]1O[C@@H]1C(=O)Nc1ccc(Oc2ccc(N)cc2)cc1 ; method: MTT ; result: >100 µM
COc1ccc(C(=O)O/N=C(\N)Cc2ccc([N+](=O)[O-])cc2)c(OC)c1 ; method: MTS ; result: 45.1 µM
c1ccsc1 ; result: >100 µM
COc1ccc(-c2cnc3nc(N)nc(N4CCN(C(=O)Nc5ccc(F)cc5)CC4)c3n2)cc1OC ; method: ATP ; result: <10 µM
C=C1[C@@H](n2cnc3c(N)ncnc32)[C@H](F)[C@H](O)[C@H]1CO ; method: MTT ; result: >300 µM
CCCCNC(=O)N1CCN(c2nc(N)nc3ncc(-c4ccc(OC)c(OC)c4)nc23)CC1 ; method: ATP ; result: <10 µM
COc1ccc([C@H]2Oc3ccc([C@H]4Oc5cc(O)cc(O)c5C(=O)[C@@H]4O)cc3O[C@@H]2CO)cc1O ; method: absorbance ; result: >100 µM
Oc1ccc(C23CCCC2C2(CCCC2)c2ccc(O)cc2O3)c(O)c1 ; method: MTS ; result: 27.1 µM
Cc1ccccc1Nc1s[nH]c(=O)c1C#N ; result: >50 µM
NC(=O)[C@@H]1O[C@@H]1C(=O)Nc1ccc(Br)cc1 ; method: MTT ; result: 17 µM
C=C1C(=O)O[C@@H]2[C@H]1CC[C@H](COC(=O)C=C(C)C)[C@]1(O)CCC(=O)[C@@]21C ; result: >2 µM
C[C@@]1(O)[C@H](O)[C@@H](CO)O[C@H]1c1ccc2c(=O)[nH]c(N)nn12 ; method: MTT ; result: >100 µM
COc1ccc(CNC(=O)c2nc3ccccc3c(=O)n2O)cc1 ; method: MTT ; result: 175 µM

The last 5 rows once more:

| compound | method | result |
|---|---|---|
| Cc1ccccc1Nc1s[nH]c(=O)c1C#N | - | >50 µM |
| NC(=O)[C@@H]1O[C@@H]1C(=O)Nc1ccc(Br)cc1 | MTT | 17 µM |
| C=C1C(=O)O[C@@H]2[C@H]1CC[C@H](COC(=O)C=C(C)C)[C@]1(O)CCC(=O)[C@@]21C | - | >2 µM |
| C[C@@]1(O)[C@H](O)[C@@H](CO)O[C@H]1c1ccc2c(=O)[nH]c(N)nn12 | MTT | >100 µM |
| COc1ccc(CNC(=O)c2nc3ccccc3c(=O)n2O)cc1 | MTT | 175 µM |